Laboratory results as given in article doi:10.1101/2025.04.14.648818.
For at least one entry, the source does not settle the construct or the ends of the probe. At least one verdict was read from the data and is not stated in words by the source.

The chains behind the UniProt entries cited, without tags or fusion partners. Residues count along the entry.
UniProt P03300, 1566-2209: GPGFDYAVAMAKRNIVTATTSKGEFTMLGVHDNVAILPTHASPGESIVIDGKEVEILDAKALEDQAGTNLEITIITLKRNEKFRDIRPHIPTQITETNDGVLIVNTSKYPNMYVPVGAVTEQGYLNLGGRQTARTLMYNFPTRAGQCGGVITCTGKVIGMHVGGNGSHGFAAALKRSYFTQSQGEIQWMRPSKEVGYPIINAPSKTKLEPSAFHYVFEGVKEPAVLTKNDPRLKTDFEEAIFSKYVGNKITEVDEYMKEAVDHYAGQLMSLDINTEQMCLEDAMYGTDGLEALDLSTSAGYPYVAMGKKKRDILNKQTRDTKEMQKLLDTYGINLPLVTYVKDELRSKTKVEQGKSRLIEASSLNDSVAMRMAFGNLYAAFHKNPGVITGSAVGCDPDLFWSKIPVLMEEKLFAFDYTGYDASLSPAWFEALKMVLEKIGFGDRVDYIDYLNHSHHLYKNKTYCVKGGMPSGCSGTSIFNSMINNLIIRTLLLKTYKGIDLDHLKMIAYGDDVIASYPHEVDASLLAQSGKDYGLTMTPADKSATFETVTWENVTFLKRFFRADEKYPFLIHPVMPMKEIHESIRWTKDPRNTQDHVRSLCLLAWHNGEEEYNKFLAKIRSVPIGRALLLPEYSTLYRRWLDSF

What follows are sequences tested against PV-3CD (Poliovirus) (UniProt P03300) (assay: negative-stain EM). Conditions: oligomers ~20-40 nm, indirect read-out.
GGCGGCGUACUCCGG [RNA-1]: binds.

Each sequence was assayed against PV-3CD (Poliovirus) (UniProt P03300) (assay: DIC microscopy). Conditions: indirect read-out.
ACCCCAGAGGCCCAC [RNA-4]: binds.
GAUUGGGUCAUACUGUUGUAG [RNA-12]: binds.
UUUUUUUUUUUUUUU [RNA-3 (U15)]: binds.
AGUUCAAGAGC [RNA-15]: binds.
UUUUCUUUAAUUCGGAGAAAA [RNA-14]: binds.
CCAUCAAGAAUCCUA [RNA-5]: binds.
AAAAAAAAAAAAAAA [RNA-6 (A15)]: binds.
GGGGUUGUACCCACCCC [RNA-10]: binds.
CGUUGGCUUGACUCA [RNA-9]: binds.
CUCCGGUAUUGCGGUACCCUUG [RNA-11]: binds.
CAGAGGAACACGUGGCGGCG [RNA-13]: binds.
CGCAGCAAACACAAG [RNA-7]: binds.
CUACCUCAGUCGAAU [RNA-8]: binds.
